Measured values from several laboratories, pooled; numbers as filed in NIAID ChemDB.

Shared fields: enzyme or target tests; species: HIV; target: Reverse transcriptase; read-out: IC50

Lines come from different laboratories, so protocols vary. Blank or dashed fields: not listed here. ICn: concentration for n% inhibition.

| compound | mutations | method | result |
|---|---|---|---|
| COc1ccc2nc3cc(Cl)ccc3c(NCCCCCCCN)c2c1 | - | nucleotide incorporation / radiometric | 9.5 µg/mL |
| Cc1cc(Cc2ccc(Cl)c(Oc3cc(C#N)cc(C#N)c3)c2F)n[nH]c1=O | WT | - | 0.001 µM |
| S=C(Cc1ccccn1)NCc1ccccc1Cl | K103N | radiometric | >100 µM |
| COc1ccc2nc3cc(Cl)ccc3c(NCCCNCCCNCCCN)c2c1 | - | nucleotide incorporation / radiometric | 3.7 µg/mL |
| Cc1ccnc2c1NC(=O)c1cc(N)c[nH+]c1N2C1CC1 | K103N | RT activity | 62.1 µM |
| S=C(CCc1ccccc1)Nc1ccc(Cl)cn1 | K103N | radiometric | >100 µM |
| Nc1nc2c(ncn2[C@H]2CC[C@@H](COP(=O)(O)OP(=O)(O)OP(=O)(O)OP(=O)(O)OC[C@H]3O[C@@H](n4cnc5c(N)ncnc54)[C@H](O)[C@@H]3O)O2)c(=O)[nH]1 | RT-D67N K70R | nucleotide incorporation / radiometric | 1.4 µM |
| CCN1c2ncc(CSc3ccccc3)cc2C(=O)N(C)c2c(C)cc(Cl)nc21 | K103N | RT activity | 4.37 µM |
| COc1ccc(C(=O)CSc2nc(Cc3ccccc3)c(C(C)C)c(=O)[nH]2)cc1 | - | ELISA | 1.46 µM |
| CC(C)=CCN1Cc2cccc3[nH]c(=S)n(c23)C[C@@H]1C | RT-V60T | nucleotide incorporation | 1.84 µM |
| Nc1ccn([C@H]2CC[C@@H](COP(=O)(O)OP(=O)(O)OP(=O)(O)O)O2)c(=O)n1 | RT-W88G | nucleotide incorporation / radiometric | 0.28 µM |
| CCc1c(Cc2cccc3ccccc23)nc(Sc2cccs2)[nH]c1=O | - | ELISA | 548 µM |
| COc1ccc2nc3cc(Cl)ccc3c(NCCCN(C)C)c2c1 | - | nucleotide incorporation / radiometric | 27 µg/mL |
| Nc1ncnc2c1ncn2[C@H]1CC[C@@H](COP(=O)(O)OP(=O)(O)OP(=O)(O)OP(=O)(O)OC[C@@H]2CC[C@H](n3cnc4c(N)ncnc43)O2)O1 | RT-W88G | nucleotide incorporation / radiometric | >15 µM |
| CCc1c(Cc2ccccc2)nc(SCC(=O)c2ccccc2)[nH]c1=O | - | ELISA | 0.35 µM |
| Fc1cccc(F)c1CC(=S)NCCc1ccccn1 | K103N | radiometric | >100 µM |
| Cc1c(Cc2ccccc2)nc(SCC(=O)c2ccccc2)[nH]c1=O | - | ELISA | 1.85 µM |
| CCN1c2nc(Cl)ccc2NC(=O)c2cc(CSc3cccc(F)c3)cnc21 | K103N | RT activity | 13.9 µM |
| Nc1ncnc2c1ncn2[C@H]1CC[C@@H](COP(=O)(O)OP(=O)(O)OP(=O)(O)O)O1 | RT-V77I F116Y Q151M | nucleotide incorporation / radiometric | 37 µM |
| COc1ccc2nc3cc(Cl)ccc3c(NCCCN)c2c1 | - | nucleotide incorporation / radiometric | 18 µg/mL |
| Nc1nc2c(ncn2[C@H]2CC[C@@H](COP(=O)(O)OP(=O)(O)OP(=O)(O)O)O2)c(=O)[nH]1 | RT-D67N K70R T215Y K219Q | nucleotide incorporation / radiometric | 0.092 µM |
| Fc1cccc(F)c1CC(=S)NCc1ccccn1 | Y181I | radiometric | >100 µM |
| CCN1c2ncc(CSc3ccccc3)cc2C(=O)Nc2c(C)cc(Cl)nc21 | K103N | RT activity | 0.224 µM |
| COc1ccc2nc3cc(Cl)ccc3c(NCCCN3CCOCC3)c2c1 | - | nucleotide incorporation / radiometric | 46 µg/mL |
| CCN1c2nc(Cl)ccc2NC(=O)c2cc(CSc3cccc(C)c3)cnc21 | K103N | RT activity | 0.39 µM |
| COc1ccc2nc3cc(Cl)ccc3c(NCCN)c2c1 | - | nucleotide incorporation / radiometric | 12.5 µg/mL |
| Nc1nc2c(ncn2[C@H]2CC[C@@H](COP(=O)(O)OP(=O)(O)OP(=O)(O)O)O2)c(=O)[nH]1 | - | nucleotide incorporation / radiometric | 0.11 µM |

A second listing of 3 rows from above:

| compound | mutations | method | result |
|---|---|---|---|
| CC(C)=CCN1Cc2cccc3[nH]c(=S)n(c23)C[C@@H]1C | RT-V60T | nucleotide incorporation | 1.84 µM |
| COc1ccc2nc3cc(Cl)ccc3c(NCCCN3CCOCC3)c2c1 | - | nucleotide incorporation / radiometric | 46 µg/mL |
| CCN1c2ncc(CSc3ccccc3)cc2C(=O)Nc2c(C)cc(Cl)nc21 | K103N | RT activity | 0.224 µM |